Taken from: PubChem BioAssay AID624099 (ICCB-Longwood, 2012)
This is a random part of about 21,000 reagents tested. Of all reagents, 497 (2.4%) are marked active. 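Higher z means weaker E2 silencing; only reporter increases were scored, and knock-downs that hurt cell survival may mask genuine repressor factors.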 A number with no mark means an inactive call.

Test: 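Host factors E2 relies on to silence an HPV18 LCR reporter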 (primary screen)
Cell system: human C33A cervical carcinoma cells (HPV-negative) stably expressing BPV1 E2 and an HPV18 LCR luciferase reporter
Reagent: siRNA pool against human genes, 40 nM
Time to read-out: 72 h
Read-out: 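Per-well luciferase luminescence, z-scored on each plate against the plate mean and SD with control wells left out, then averaged across three replicate plates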
Direction: mean z-score and z-score: higher = stronger reporter signal, weaker E2 silencing
Active means: 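Hit if mean z-score reaches 2 and two or more of three replicate z-scores also reach 2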

no.	gene	mean z-score	z-score, replicate A	z-score, replicate B	z-score, replicate C
1	POR (cytochrome p450 oxidoreductase)	0.83	1.35	0.87	0.28
2	PPP3CA-DT (PPP3CA divergent transcript)	0.41	0.59	0.24	0.41
3	KLHL40 (kelch like family member 40)	-1.46	-1.21	-1.52	-1.64
4	SYT16 (synaptotagmin 16)	0.75	0.8	0.69	0.76
5	PAG1	1.31	1.14	1.41	1.38
6	VPS13D (vacuolar protein sorting 13 homolog D)	0.69	0.89	0.79	0.39
7	KIAA0319	1.21	1.53	1.21	0.89
8	MAP1LC3C (microtubule associated protein 1 light chain 3 gamma)	1.25	1.1	0.95	1.7
9	VRK1 (VRK serine/threonine kinase 1)	0.17	0.2	-0.06	0.36
10	LOC389819 (retired record)	0.47	0.54	0.48	0.39
11	IRAK3 (interleukin 1 receptor associated kinase 3)	0.33	0.05	0.34	0.61
12	ADGRA3 (adhesion G protein-coupled receptor A3)	-1.45	-1.85	-1.32	-1.19
13	PTPN14 (protein tyrosine phosphatase non-receptor type 14)	-0.93	-0.88	-1.1	-0.81
14	REPIN1 (replication initiator 1)	-2.05	-2.01	-1.9	-2.25
15	SPAG16 (sperm associated antigen 16)	-0.26	-0.46	-0.28	-0.05
16	FAM24A (family with sequence similarity 24 member A)	-0.17	-0.28	-0.15	-0.07
17	OR10T2 (olfactory receptor family 10 subfamily T member 2)	0.07	0.53	-0.12	-0.18
18	CFAP298 (cilia and flagella associated protein 298)	0.8	0.49	0.9	1.01
19	STN1 (STN1 subunit of CST complex)	0.42	0.56	0.37	0.32
20	ZNF396 (zinc finger protein 396)	-0.2	-0.18	-0.1	-0.34
21	MMRN1 (multimerin 1)	-0.88	-0.91	-0.69	-1.04
22	SIRT1 (sirtuin 1)	1.12	1.08	1.12	1.16
23	CNOT11 (CCR4-NOT transcription complex subunit 11)	0.39	0.5	0.27	0.39
24	OR56A4 (olfactory receptor family 56 subfamily A member 4)	0.83	0.43	0.97	1.09
25	SLC46A1	1.78	1.74	1.71	1.87
26	CDC42BPG (CDC42 binding protein kinase gamma)	-0.19	0.33	-0.2	-0.7
27	PPP1R42 (protein phosphatase 1 regulatory subunit 42)	-0.17	0.49	-0.83	-0.17
28	LPCAT1 (lysophosphatidylcholine acyltransferase 1)	0.72	0.73	0.52	0.9
29	ZNF221 (zinc finger protein 221)	0.7	0.8	0.66	0.63
30	MEN1 (menin 1)	0.46	0.71	0.56	0.11
31	MIMS1 (mitochondrial inner membrane structural 1)	0.32	0.23	0.37	0.35
32	VSTM2B (V-set and transmembrane domain containing 2B)	-0.69	-0.82	-0.86	-0.39
33	BARHL2 (BarH like homeobox 2)	-0.64	-0.57	-0.74	-0.61
34	SLCO1B1	-1.05	-0.95	-1.12	-1.08
35	P3H3 (prolyl 3-hydroxylase 3)	1.24	1.53	1.11	1.08
36	KRT76 (keratin 76)	0.71	0.91	0.6	0.62
37	DOC2GP (double C2 domain gamma, pseudogene)	0.17	0.11	0.11	0.29
38	CBX1 (chromobox 1)	-0.4	-0.51	-0.38	-0.31
39	PAK2 (p21 (RAC1) activated kinase 2)	0.05	0.31	-0.17	0.02
40	LOC389081 (retired record)	0.44	0.63	0.25	0.45
41	COX7A1 (cytochrome c oxidase subunit 7A1)	-0.04	-0.06	-0.02	-0.04
42	ZNF831 (zinc finger protein 831)	-0.11	-0.05	-0.17	-0.11
43	BLZF1 (basic leucine zipper nuclear factor 1)	-0.63	-0.51	-0.63	-0.74
44	FOLH1B (folate hydrolase 1B (pseudogene))	-0.07	0.53	0.14	-0.87
45	HACD2 (3-hydroxyacyl-CoA dehydratase 2)	-0.64	-0.67	-0.49	-0.75
46	CHRD (chordin)	-0.65	-0.93	-0.52	-0.5
47	LOC402663 (retired record)	0.01	-0.16	0.29	-0.11
48	GHR (growth hormone receptor)	0.18	0.24	0.05	0.26
49	LMNB2 (lamin B2)	-0.67	-1.03	-0.73	-0.26
50	LOC389846 (retired record)	0.55	0.71	0.23	0.71
51	TMC6 (transmembrane channel like 6)	-1.83	-1.71	-1.87	-1.91
52	PER2 (period circadian regulator 2)	1.08	0.78	1.27	1.19
53	OR10W1 (olfactory receptor family 10 subfamily W member 1)	-0.12	0.17	-0.17	-0.35
54	LY96 (lymphocyte antigen 96)	0.75	0.62	0.81	0.81
55	PRAMEF4 (PRAME family member 4)	0.73	0.75	0.66	0.78
56	VAMP5 (vesicle associated membrane protein 5)	-0.47	-0.68	-0.52	-0.21
57	MDM2 (MDM2 proto-oncogene)	-0.68	-0.72	-0.83	-0.47
58	TOB1-AS1 (TOB1 antisense RNA 1)	0.16	-0.02	0.22	0.26
59	ANKRD10 (ankyrin repeat domain 10)	0.32	0.34	0.23	0.38
60	SERPINB6 (serpin family B member 6)	-0.02	0.45	-0.6	0.1
61	CPNE1 (copine 1)	0.44	0.39	0.11	0.82
62	LOC389189 (retired record)	-0.02	-0.17	-0.11	0.21
63	LSMEM2 (leucine rich single-pass membrane protein 2)	-0.33	0.06	-0.56	-0.48
64	GZMA (granzyme A)	0.11	-0.15	0.22	0.25
65	NAALADL2 (N-acetylated alpha-linked acidic dipeptidase like 2)	-1.15	-1.04	-1.19	-1.23
66	FOLR1 (folate receptor alpha)	0.11	-0.05	0.3	0.08
67	RAB40B (RAB40B, member RAS oncogene family)	-0.29	-0.2	0.03	-0.69
68	TMUB1 (transmembrane and ubiquitin like domain containing 1)	-2.14	-2.35	-1.91	-2.16
69	SPATA18 (spermatogenesis associated 18)	0.62	0.81	0.44	0.61
70	TTL (tubulin tyrosine ligase)	0.57	0.59	0.36	0.75
71	ASPN (asporin)	-0.19	-0.11	-0.28	-0.17
72	NHLH2 (nescient helix-loop-helix 2)	0.15	0.24	-0.13	0.34
73	NEK9 (NIMA related kinase 9)	0.31	0.25	0.31	0.35

In a second layout: 5 of the entries above
gene,mean z-score,"z-score, replicate A","z-score, replicate B","z-score, replicate C"
GZMA (granzyme A),0.11,-0.15,0.22,0.25
NAALADL2 (N-acetylated alpha-linked acidic dipeptidase like 2),-1.15,-1.04,-1.19,-1.23
FOLR1 (folate receptor alpha),0.11,-0.05,0.3,0.08
"RAB40B (RAB40B, member RAS oncogene family)",-0.29,-0.2,0.03,-0.69
TMUB1 (transmembrane and ubiquitin like domain containing 1),-2.14,-2.35,-1.91,-2.16
